Anti-infective test results gathered from many reports (values: NIAID ChemDB through PubChem).

All rows: growth or infection tests; organism: HIV-1; endpoint: EC50

ECn: concentration that inhibits the pathogen or its effect by n%. a–b is a range or a potency band. Lines come from different laboratories, so protocols vary. An empty or dashed field is not shown.

smiles	conditions	method	mutations	strain or isolate	cell line	result
O=S(=O)(O)O.O=S(=O)(O)O.O=S(=O)(O)O.O=S(=O)(O)O.O=S(=O)(O)O.O=S(=O)(O)O.OC[C@H]1O[C@@H]2O[C@H]3[C@H](O)[C@@H](O)[C@@H](O[C@H]4[C@H](O)[C@@H](O)[C@@H](O[C@H]5[C@H](O)[C@@H](O)[C@@H](O[C@H]6[C@H](O)[C@@H](O)[C@@H](O[C@H]7[C@H](O)[C@@H](O)[C@@H](O[C@H]1[C@H](O)[C@H]2O)O[C@@H]7CO)O[C@@H]6CO)O[C@@H]5CO)O[C@@H]4CO)O[C@@H]3CO		syncytia		IIIB	HuT-78 + HUT 78	>500 µg/mL
N#CC(=C1CCN(C(=O)C(=O)c2c[nH]c3c(-n4ccnn4)ncc(F)c23)CC1)c1ccccc1		luciferase			HeLa	<1 µM
CCCCOc1c(OC)cc(C(=O)N2CCN(C(=O)c3cc(OC)c(OC)c(OC)c3)CC2COC(=O)N(CC)CC)cc1OC		RT activity		BaL	MDM	>100 µM
CC(C)=CCOc1cc(NC(=S)c2ccsc2C)ccc1Cl		cytopathic effect / XTT	RT-Y181C	UC82-R (RT-Y181C)	CEM + CEM-SS	0.2 µM
CCCCCCCCCCCCCCCC(=O)OCC(COC(=O)CCC(=O)OCC1CC(OP(=O)(O)OCC2CC(OP(=O)(O)OCC3CC(O)C(n4cnc5c(N)ncnc54)O3)C(n3cnc4c(N)ncnc43)O2)C(n2cnc3c(N)ncnc32)O1)OC(=O)CCCCCCCCCCCCCCC		syncytia		IIIB	SupT1 + Sup-T1	24 µM
COc1cccc(CN(C)c2cccc(-c3ccc4ccn(Cc5cccc(C(=O)O)c5)c4c3)c2)c1		entry / luminescence		BaL	MAGI-CCR5	1.6 µM
CC(C)C1=C2[C@H]3CC[C@@H]4[C@@]5(C)CC[C@H](OC(=O)[C@H]6C[C@@H](C(=O)O)C6(C)C)C(C)(C)[C@@H]5CC[C@@]4(C)[C@]3(C)CC[C@@]2(CCNC(=O)c2ccc(N)nc2)CC1=O		p24 / ELISA		92HT599	MT-2	<1 µM
O=C(NCc1ccc(F)c(Cl)c1)c1cc2cccnc2n(O)c1=O	pseudotyped	luciferase			HOS	>0.0375 µM
CC(C)C1=C2[C@H]3CC[C@@H]4[C@@]5(C)CC[C@H](OC(=O)[C@H]6C[C@@H](C(=O)O)C6(C)C)C(C)(C)[C@@H]5CC[C@@]4(C)[C@]3(C)CC[C@@]2([C@@H](O)CNCc2ncccn2)CC1=O		p24 / ELISA		92HT599	MT-2	<1 µM
CCCCCCCOC(=O)[C@H](C)NP(=O)(CO[C@H](C)Cn1cnc2c(N)ncnc21)NC[C@H](C)C(=O)OC(C)C	10% human serum	fluorescence			MT4-GFP	6.5 µM
CCCCCCCCCCCCCCCCOCC(COC(=O)CCC(=O)OCC1CC(OP(=O)(O)OCC2CC(OP(=O)(O)OCC3CC(O)C(n4cnc5c(N)ncnc54)O3)C(n3cnc4c(N)ncnc43)O2)C(n2cnc3c(N)ncnc32)O1)OCCCCCCCCCCCCCCCC		syncytia		IIIB	SupT1 + Sup-T1	<300 µM
CCN(CC)C(=O)OCC1CN(Cc2ccccc2)CCN1C(=O)c1cc(OC)c(OC)c(OC)c1		RT activity		BaL	MDM	13 µM
CC(C)C1=C2[C@H]3CC[C@@H]4[C@@]5(C)CC[C@H](OC(=O)[C@H]6C[C@@H](C(=O)O)C6(C)C)C(C)(C)[C@@H]5CC[C@@]4(C)[C@]3(C)CC[C@@]2([C@@H](O)CNC(=O)CN2CCS(=O)(=O)CC2)CC1=O		p24 / ELISA		92HT599	MT-2	<1 µM
CCN1c2ncc(CCOc3ccc(C(=O)Nc4cccc(CC(=O)O)c4)cc3C)cc2C(=O)N(C)c2cccnc21		p24		IIIB	C8166	0.01–0.05 µM
CNCc1ccc2c(c1)[C@H](NC(=O)C(=O)Nc1ccc(Cl)c(F)c1)[C@@H](CN=C(N)N)C2		luciferase / entry		JR-FL	Cf2Th-CD4/CCR5	>100 µM
CCN(CC)C(=O)OCC1CN(Cc2noc(=O)[nH]2)CCN1C(=O)c1cc(OC)c(OC)c(OC)c1		RT activity		BaL	MDM	>100 µM
CC(C)C1=C2[C@H]3CC[C@@H]4[C@@]5(C)CC[C@H](OC(=O)[C@H]6C[C@@H](C(=O)O)C6(C)C)C(C)(C)[C@@H]5CC[C@@]4(C)[C@]3(C)CC[C@@]2(CCN(CCN(C)C)Cc2ccncn2)CC1=O		p24 / ELISA		92HT599	MT-2	<1 µM
COc1cnc(-n2ccnn2)c2[nH]cc(C(=O)C(=O)N3CCC(=C(c4ccccc4)c4nnc(C)o4)CC3)c12		luciferase			HeLa	<1 µM
CCCCCCCCCCCCCC(=O)OCC/C(SS/C(CCOC(=O)CCCCCCCCCCCCC)=C(\C)N(C=O)Cc1cnc(C)nc1N)=C(/C)N(C=O)Cc1cnc(C)nc1N		p24		KMT(SI/TT)	PBMC(CXCR4 CCR5) + PBMC	<25 µM
CCN1c2ncc(CCOc3ccc(-c4ccccc4)cc3)cc2C(=O)N(C)c2cccnc21		p24		IIIB	C8166	<0.01 µM
CC(C)C1=C2[C@H]3CC[C@@H]4[C@@]5(C)CC[C@H](OC(=O)[C@H]6C[C@@H](C(=O)O)C6(C)C)C(C)(C)[C@@H]5CC[C@@]4(C)[C@]3(C)CC[C@@]2(CCNCC2(NC(=O)c3ccc(Cl)cc3)COC2)CC1=O		p24 / ELISA		92HT599	MT-2	<1 µM
COc1cnc(-c2cnccn2)c2[nH]cc(C(=O)C(=O)N3CCC(=C(c4ccccc4)c4cccc(F)c4)CC3)c12		luciferase			HeLa	<1 µM
Nc1nccc2c1ncn2[C@@H]1C=C(CO)[C@@H](O)[C@H]1O		p24		14-6/89 POST-AZT	PBMC	0.00065 µM
Nc1ccn([C@H]2CC[C@@H](CO)O2)c(=O)n1		MTT		IIIB	HTLV-I-bearing MT-4	2.41 µg/mL
CC(C)OC(=O)CCNP(=O)(CO[C@H](C)Cn1cnc2c(N)ncnc21)N[C@@H](C)C(=O)OC1CCC1	10% human serum	fluorescence			MT4-GFP	120.6 µM
C=C1CC[C@@H](OC(=O)CCC(=O)OC2CC(COP(=O)(O)OC3CC(COP(=O)(O)OC4CC(CO)OC4n4cnc5c(N)ncnc54)OC3n3cnc4c(N)ncnc43)OC2n2cnc3c(N)ncnc32)C/C1=C/C=C1\CCC[C@]2(C)[C@@H]([C@@H](C)/C=C/[C@H](C)C(C)C)CC[C@@H]12		syncytia		IIIB	SupT1 + Sup-T1	<300 µM
CCC(=O)c1ccc(F)c([C@@H]2C[C@@H]2NC(=O)Nc2ccc(C#N)cn2)c1O		β-galactosidase / luminescence	NNRTI-resistant (RT Y181V)	LAI	TZM-bl	0.0396 µM
C/C(=C(/CCO)SS/C(CCO)=C(\C)N(C=O)Cc1cnc(C)nc1N)N(C=O)Cc1cnc(C)nc1N		p24		ADA	Macrophage + Monocytes/macrophages	>100 µM
O=Cc1coc2ccc([N+](=O)[O-])cc2c1=O		MTT		IIIB	HTLV-I-bearing MT-4	>40 µg/mL
Cc1c(OCC2CCC2)c2cc(F)ccc2[nH]c1=O		β-galactosidase	RT-V106A	NNRTI-resistant (RT V106A)	HeLa + HeLa-MAGI	>2 µM
CC(C)C1=C2[C@H]3CC[C@@H]4[C@@]5(C)CC[C@H](OC(=O)[C@H]6C[C@@H](C(=O)O)C6(C)C)C(C)(C)[C@@H]5CC[C@@]4(C)[C@]3(C)CC[C@@]2(CC(=O)NCc2ccc(N3CCS(=O)(=O)CC3)cc2)CC1=O		p24 / ELISA		92HT599	MT-2	<1 µM
CC(O)CCCCCC(CCCCCCCCCCCCCC1CC(=O)OC[C@H]2O[C@@H](OC(CCCCCCCCCCCC(CCCCCC(C)O)O[C@@H]3O[C@H](CO)[C@@H](O)[C@H](O)[C@H]3O)CC(=O)OC[C@@H]3O[C@H](O1)[C@@H](O)[C@H](O)[C@H]3O)[C@H](O)[C@@H](O)[C@@H]2O)O[C@@H]1O[C@H](CO)[C@@H](O)[C@H](O)[C@H]1O		β-galactosidase		IIIB	MAGI (CCR5) + MAGI	4.3 µg/mL
CC(C)C1=C2[C@H]3CC[C@@H]4[C@@]5(C)CC[C@H](OC(=O)[C@H]6C[C@@H](C(=O)O)C6(C)C)C(C)(C)[C@@H]5CC[C@@]4(C)[C@]3(C)CC[C@@]2(CCNCC2(NC(=O)c3ccc(Cl)cc3)CCCCC2)CC1=O		p24 / ELISA		92HT599	MT-2	<1 µM
CN1N=C(N)c2cn([C@@H]3O[C@H](COP(=O)(O)O)[C@@H](O)[C@H]3O)c3ncnc1c23		cytopathic effect / XTT		RF	CEM + CEM-SS	0.03 µM
CCN1c2ncc(CCOc3ccc(NC(=O)c4ccc(C(=O)O)cc4)cc3C)cc2C(=O)N(C)c2cccnc21		p24	RT-K103N Y181C		C8166	>0.05 µM
CC(C)OC(=O)[C@H](C)CNP(=O)(CO[C@H](C)Cn1cnc2c(N)ncnc21)N[C@@H](C)C(=O)OC(C)C	50% human serum	fluorescence			MT4-GFP	97.2 µM
CCN1c2ncc(CCOc3ccc(-c4ccc(C(=O)O)c(Cl)c4)cc3C)cc2C(=O)N(C)c2cccnc21		p24	RT-K103N Y181C		C8166	>0.05 µM
COc1cnc(-c2cncnc2)c2[nH]cc(C(=O)C(=O)N3CCC(=C(C#N)c4ccccc4)CC3)c12		luciferase			HeLa	<1 µM
O=c1ccoc2ccccc12		MTT		IIIB	HTLV-I-bearing MT-4	>200 µg/mL
Nc1ncnc2c1ncn2[C@@H]1C=C(CO)[C@@H](O)[C@H]1O		p24		18199 unpaired	PBMC	0.01 µM
CC(C)OC(=O)[C@H](C)NP(=O)(CO[C@H](C)Cn1cnc2c(N)ncnc21)NC[C@H](C)C(=O)OC(C)C	50% human serum	fluorescence			MT4-GFP	59.3 µM
CCN(CC)C(=O)OCC1CN(C(=O)c2cc(OC)c(OC)c(OC)c2)CCN1C(c1ccccc1)c1ccccc1		RT activity		BaL	MDM	3 µM
CC(C)=CCOc1cc(NC(=S)c2ccoc2C)ccc1Cl		cytopathic effect / XTT	RT-Y188C	NL4-3 (RT Y188C)	CEM + CEM-SS	0.01 µM
CCN1c2ncc(CCOc3ccc(C(=O)NS(C)(=O)=O)cc3C)cc2C(=O)N(C)c2cccnc21		p24	RT-K103N Y181C		C8166	>0.05 µM
CC(C)c1ccc2occ(C=O)c(=O)c2c1		MTT		IIIB	HTLV-I-bearing MT-4	>40 µg/mL
Nc1ccn([C@@H]2CS[C@H](CO)O2)c(=O)n1		luciferase	WT	NL4-3	TZM-bl	0.00095 µM
O=C(O)c1cc2ccccc2oc1=O		MTT		IIIB	HTLV-I-bearing MT-4	>1000 µg/mL
CCCCCOC(=O)C(C)(C)N[P@@](=O)(CO[C@H](C)Cn1cnc2c(N)ncnc21)N[C@@H](CC(=O)OC(C)C)C(C)C	10% human serum	fluorescence			MT4-GFP	28.9 µM
O=C(N/N=C/c1ccc(O)cc1)Nc1cccc2nsnc12		cell fusion / luminescence		YU2	Cf2Th-CD4/CCR5	8.6 µM
CCN(CC)C(=O)OCC1CN(C(=O)c2cc(OC)c(OC)c(OC)c2)CCN1C(=S)c1cc(OC)c(OC)c(OC)c1		RT activity		BaL	MDM	>100 µM
Cc1c(C)c2c(c(C)c1OC(=O)CCC(=O)OC1CC(COP(=O)(O)OC3CC(COP(=O)(O)OC4CC(CO)OC4n4cnc5c(N)ncnc54)OC3n3cnc4c(N)ncnc43)OC1n1cnc3c(N)ncnc31)CCC(C)(CCCC(C)CCCC(C)CCCC(C)C)O2		syncytia		IIIB	SupT1 + Sup-T1	18 µM
C=CCN(CC=C)C(=S)N=Nc1c(O)n(CC=C)c2ccccc12	chronic infection	RT activity			H9/HIV-1 + H9	2 µg/mL
CCN(CC)C(=O)OCC1CN(C(=O)c2cc(OC)c(OC)c(OC)c2)CCN1		RT activity		BaL	MDM	>100 µM
CN1C(=O)[C@H](c2cc(Cl)c(O)c(Cl)c2)NC(=O)[C@H]2NC(=O)[C@H](c3cc(Cl)c(O)c(Cl)c3)NC(=O)[C@H](NC(=O)C(=O)c3cc(Cl)c(O)c(Cl)c3)c3c[nH]c4ccc(cc34)-c3cc2cc(c3O)Oc2ccc(cc2)C[C@@H]1C(=O)N[C@H](C(=O)O)c1ccc(O)cc1		ELISA		Clinical isolate	CD4+ T-cell	<1.3 µM
CCCCOC(=O)[C@@H](C)NP(=O)(CO[C@H](C)Cn1cnc2c(N)ncnc21)NC[C@H](C)C(=O)OC(C)C	50% human serum	fluorescence			MT4-GFP	79.4 µM
COC(=O)c1cccc(Cn2ccc3cc(F)c(-c4ccc5ccn(Cc6cccc(C(=O)O)c6)c5c4)cc32)c1		cell fusion / luminescence		HXB2	TZM-bl + HL2/3	0.4 µM
Cc1cc(-c2ccc[n+]([O-])c2)ccc1OCCc1cnc2c(c1)C(=O)Nc1c(C)ccnc1N2C1CC1		p24	RT-K103N Y181C		C8166	0.01–0.05 µM
CC(C)C1=C2[C@H]3CC[C@@H]4[C@@]5(C)CC[C@H](OC(=O)[C@H]6C[C@@H](C(=O)O)C6(C)C)C(C)(C)[C@@H]5CC[C@@]4(C)[C@]3(C)CC[C@@]2(CC(=O)NCC(C)(C)NC(=O)c2ccc(Cl)cc2O[C@H]2CCOC2)CC1=O		p24 / ELISA		92HT599	MT-2	<1 µM
COc1cnc(-n2cnc(C)n2)c2[nH]cc(C(=O)C(=O)N3CCC(=C(c4ccccc4)c4nnc(C)o4)CC3)c12		luciferase			HeLa	<1 µM
CC(C)Cn1cnc2c(N)nc3ccccc3c21	pseudotyped	luciferase / reporter gene / luminescence		NL4-3	CD4+ T-cell	9.4 µM
[2H]C([2H])(CNC(=O)c1ccc(Cl)cc1)NC(=O)C[C@@]12CC[C@]3(C)[C@H](CC[C@@H]4[C@@]5(C)CC[C@H](OC(=O)[C@H]6C[C@@H](C(=O)O)C6(C)C)C(C)(C)[C@@H]5CC[C@]43C)C1=C(C(C)C)C(=O)C2		p24 / ELISA		92HT599	MT-2	<1 µM
C=C(C)[C@@H]1CC[C@]2(C(=O)NCCCCCCCC(=O)N[C@@H](CC(C)C)[C@@H](O)CC(=O)O)CC[C@]3(C)[C@H](CC[C@@H]4[C@@]5(C)CC[C@H](O)C(C)(C)[C@@H]5CC[C@]43C)[C@@H]12		syncytia	GP41-Q39H	LAI	HeLa P4 + HeLa	<10 µM
CCN(CC)C(=S)S		p24		ADA	Macrophage + Monocytes/macrophages	>100 µM